Measured values from several laboratories, pooled; numbers as filed in NIAID ChemDB.

All rows: tests in culture; organism: Candida glabrata

Neighbouring rows are from separate reports.

compound	conditions	read by	strain	measure	value
CCC(C)CC(C)CCCCCCCCC(=O)N[C@H]1C[C@@H](O)[C@H](NCCN)NC(=O)[C@@H]2[C@@H](O)CCN2C(=O)[C@H]([C@H](O)CCN)NC(=O)[C@H]([C@H](O)[C@@H](O)c2ccc(O)cc2)NC(=O)[C@@H]2C[C@@H](O)CN2C(=O)[C@H]([C@@H](C)O)NC1=O	-	broth dilution	C454	MIC	1 µg/mL
Cc1ccc(C2CC(c3ccc4ccccc4c3)=Cc3[nH][nH]c(=O)c32)cc1	-	-	-	MIC	100 µg/mL
CCCCCOc1ccc(-c2cc(-c3ccc(C(=O)N[C@H]4C[C@@H](O)[C@@H](O)NC(=O)[C@@H]5[C@@H](O)[C@@H](C)CN5C(=O)[C@H]([C@H](O)CC(N)=O)NC(=O)[C@H]([C@H](O)[C@@H](O)c5ccc(O)c(OS(=O)(=O)O)c5)NC(=O)[C@@H]5C[C@@H](O)CN5C(=O)[C@H]([C@@H](C)O)NC4=O)cc3)no2)cc1	-	broth dilution	-	MIC90	0.03 µg/mL
Cn1cccc1/C=C1\SC(=O)N(CC(O)(Cn2nccn2)c2ccc(F)cc2F)C1=O	-	-	-	MIC80	2.24 µg/mL
CCC(C)n1ncn(-c2ccc(N3CCN(c4ccc(OC[C@H]5CO[C@](Cn6cncn6)(c6ccc(Cl)cc6Cl)O5)cc4)CC3)cc2)c1=O	-	broth dilution	-	MIC90	1 µg/mL
Nc1[nH]c(=O)ncc1F	pH 5	broth dilution	40 isolates	EC90	0.125 µg/mL
CN(Cc1ccc(S(=O)(=O)N2CCOCC2)cc1)CC(O)(Cn1cncn1)c1ccc(F)cc1F	-	resazurin	468	MIC	0.021 µg/mL
CCC(C)CC(C)CCCCCCCCC(=O)N[C@H]1C[C@@H](O)[C@H](NCCN)NC(=O)[C@@H]2[C@@H](O)CCN2C(=O)[C@H]([C@H](O)CCN)NC(=O)[C@H]([C@H](O)[C@@H](O)c2ccc(O)cc2)NC(=O)[C@@H]2C[C@@H](O)CN2C(=O)[C@H]([C@@H](C)O)NC1=O	pH 5	broth dilution	40 isolates	MIC	0.5 µg/mL
CCC(C)/C=C1\SC(=O)N(CC(O)(Cn2nccn2)c2ccc(F)cc2F)C1=O	-	-	-	MIC80	0.31 µg/mL
C[C@@H]1C(=O)N(CCCc2ccccc2)C(=O)[C@@H]1C	-	broth dilution / turbidity	CCC 115-2000	MIC	62.5 µg/mL
O=C1S/C(=C\c2ccc(Cl)cc2)C(=O)N1CC(O)(Cn1nccn1)c1ccc(F)cc1F	-	-	-	MIC80	4.19 µg/mL
O=c1c(N2CCOCC2)c(N2CCN(S(=O)(=O)Cc3ccccc3)CC2)cnn1-c1ccccc1	-	broth dilution	C454	MIC	3.13 µg/mL
C=CCc1ccc(OC)c(OC)c1	-	turbidity	2622	MIC90	350 µg/mL
O=c1[nH][nH]c2c1C(c1ccc(Cl)cc1)CC(c1ccc3ccccc3c1)=C2	-	-	-	MIC	25 µg/mL
O=C1S/C(=C\c2cccnc2)C(=O)N1CC(O)(Cn1nccn1)c1ccc(F)cc1F	-	-	-	MIC80	4.51 µg/mL
COC(=O)[C@H]1[C@@H]2C[C@@H](O[C@@H]3O[C@H](C)[C@@H](O)[C@H](N)[C@@H]3O)/C=C/C=C/C=C/C=C/C=C/C=C/C=C/[C@H](C)[C@@H](O)[C@H](C)[C@H](C)OC(=O)C[C@H](O)C[C@H](O)[C@@H](O)CC[C@H](O)C[C@H](O)C[C@](O)(C[C@@H]1O)O2	pH 7	broth dilution	40 isolates	EC90	0.25 µg/mL
CC1CC(=O)N(c2ccccc2)C1=O	-	broth dilution / turbidity	CCC 115-2000	MIC	125 µg/mL
CCC(C)CC(C)CCCCCCCCC(=O)N[C@H]1C[C@@H](O)[C@H](NCCN)NC(=O)[C@@H]2[C@@H](O)CCN2C(=O)[C@H]([C@H](O)CCN)NC(=O)[C@H]([C@H](O)[C@@H](O)c2ccc(O)cc2)NC(=O)[C@@H]2C[C@@H](O)CN2C(=O)[C@H]([C@@H](C)O)NC1=O	-	-	Clinical isolates	MIC	0.066 µg/mL
COc1ccc(/C=C2\SC(=O)N(CC(O)(Cn3nccn3)c3ccc(F)cc3F)C2=O)cc1	-	-	-	MIC80	2.17 µg/mL
NC(=O)N/N=C/c1ccsc1.NC(=O)N/N=C/c1ccsc1.[Cl][Ni][Cl]	-	turbidity / absorbance	LMA 1085	MIC80	62 µg/mL
O=C1S/C(=C\c2ccc(F)cc2)C(=O)N1CC(O)(Cn1nccn1)c1ccc(F)cc1F	-	-	-	MIC80	0.54 µg/mL
C[C@@H]1[C@H](O)[C@@H](C)/C=C/C=C/C=C/C=C/C=C/C=C/C=C/[C@H](O[C@@H]2O[C@H](C)[C@@H](O)[C@H](N)[C@@H]2O)C[C@@H]2O[C@](O)(C[C@@H](O)C[C@@H](O)[C@H](O)CC[C@@H](O)C[C@@H](O)CC(=O)O[C@H]1C)C[C@H](O)[C@H]2C(=O)O	-	turbidity / absorbance	LMA 1085	MIC80	0.125 µg/mL
CC(C)c1ccc(S(=O)(=O)Nc2ccc(CN(C)CC(O)(Cn3cncn3)c3ccc(F)cc3F)cc2)cc1	-	resazurin	468	MIC	1.9 µg/mL
O=C1S/C(=C\c2ccc(F)cc2F)C(=O)N1CC(O)(Cn1nccn1)c1ccc(F)cc1F	-	-	-	MIC80	1.04 µg/mL
CN(Cc1ccc(NS(=O)(=O)c2ccccc2)cc1)CC(O)(Cn1cncn1)c1ccc(F)cc1F	-	resazurin	468	MIC	1.4 µg/mL
O=C1S/C(=C\c2ccco2)C(=O)N1CC(O)(Cn1nccn1)c1ccc(F)cc1F	-	-	-	MIC80	0.29 µg/mL
CN(Cc1ccc(S(N)(=O)=O)cc1)CC(O)(Cn1cncn1)c1ccc(F)cc1F	-	resazurin	468	MIC	3.4 µg/mL
Clc1ccc(COC(Cn2ccnc2)c2ccc(Cl)cc2Cl)c(Cl)c1	pH 4	broth dilution	40 isolates	MIC	2 µg/mL
C[C@@H]1CC(=O)N(c2ccc(F)cc2)C1=O	-	broth dilution / turbidity	CCC 115-2000	MIC	62.5 µg/mL

A number after MIC or MFC names an inhibition level or a share of isolates. ECn: concentration that inhibits the pathogen or its effect by n%. Blank or dashed fields: not listed here.